## Fitness of HIV-1 LAI Vif variants in SupT1-APOBEC3G cells

Vif of LAI (a laboratory-adapted subtype B strain), residues 12-115; positions count from the first residue of the whole protein:
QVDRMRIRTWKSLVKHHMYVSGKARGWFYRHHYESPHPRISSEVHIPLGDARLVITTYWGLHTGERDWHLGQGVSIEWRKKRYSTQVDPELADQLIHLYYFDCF

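Pooled viruses with one designed change each in Vif went through two 72 h rounds in SupT1 cells expressing APOBEC3G. Frequencies after the second round, in three biological replicates, were compared with the merged pool after the first round. Changes do not touch integrase, since the pol overlap was removed.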

The score is log2 enrichment against the wild-type codon: higher is better tolerated, lower is depleted.
Substitutions are written as wild-type residue, site number, new residue.
All changes here are to cysteine.
The median of three replicates is given.
Input reads are the counts in the merged round-one pool, before selection.
Not every substitution is listed.

- E76C (input reads 781) = -2.59
- R77C (input reads 422) = -2.42
- D78C (input reads 477) = -1.83
- W79C (input reads 72) = -1.69
- H80C (input reads 416) = -4.61
- L81C (input reads 338) = -2.62
- G84C (input reads 21) = 1.20
- V85C (input reads 417) = -1.66
- S86C (input reads 205) = 2.58
- I87C (input reads 218) = 2.70
- E88C (input reads 258) = -1.67
- W89C (input reads 99) = -0.40
- K92C (input reads 386) = -1.54
- T96C (input reads 274) = -1.81
- Q97C (input reads 318) = -0.69
- V98C (input reads 26) = 1.97
- D99C (input reads 428) = -2.87
- P100C (input reads 19) = -0.05
- E101C (input reads 298) = -2.74
- L102C (input reads 303) = -3.75
- A103C (input reads 30) = -1.16
- D104C (input reads 823) = -0.18
- Y110C (input reads 127) = -2.02
- Y111C (input reads 335) = -1.34
- D113C (input reads 1176) = -2.83
- F115C (input reads 348) = -2.34

Excerpt, the final 3 entries:

- Y111C (input reads 335): -1.34
- D113C (input reads 1176): -2.83
- F115C (input reads 348): -2.34

Replicates agree only moderately (rank correlation about 0.4-0.65); scores from under about 50 input reads tend to be too high.
Positive scores are uncertain; some enriched variants did not exclude APOBEC3G in a separate test.

Values reported by Langley et al. 2025, preprint (doi:10.1101/2025.10.20.683452).